From paper PMC10783015
For part of these data: Where a protein sequence is shown, tags need not be part of it. For part of these data: For at least one entry, the source does not settle the construct or the ends of the probe. For part of these data: At least one verdict was read from the data and is not stated in words by the source.

By UniProt entry, the sequences of proteins in these tests, tags left out. Where a name states a change or a piece, a line headed by the entry shows the natural chain unless it says otherwise.
UniProt P0A2T6: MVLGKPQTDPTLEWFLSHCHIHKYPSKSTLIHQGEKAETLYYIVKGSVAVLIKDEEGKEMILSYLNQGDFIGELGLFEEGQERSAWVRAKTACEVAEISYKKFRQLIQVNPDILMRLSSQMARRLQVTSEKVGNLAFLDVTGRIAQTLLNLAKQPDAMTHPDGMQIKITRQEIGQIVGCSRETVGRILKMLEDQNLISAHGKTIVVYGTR

How the values were obtained:
[1] = target: CRP (Salmonella enterica serovar Typhimurium ATCC 14028) (UniProt P0A2T6); experiment: EMSA; details: 20 uM cAMP; EMSA: 100 ng DNA in 1x TBE, 20 uL, 45 min at room temperature, 12% native PAGE, PargS competitor, 20 uM cAMP for CRP; recombinant protein; residues 1-210; protein details: C-terminal His6; probe letters rebuilt from the primers and the genome
[2] = target: T1, H-NS (Salmonella enterica serovar Typhimurium ATCC 14028) (UniProt P0A1S2); experiment: EMSA; details: EMSA: 100 ng DNA in 1x TBE, 20 uL, 45 min at room temperature, 12% native PAGE, PargS competitor, 20 uM cAMP for CRP; recombinant protein; residues 1-137; probe letters rebuilt from the primers and the genome
T1 sequence (looked up): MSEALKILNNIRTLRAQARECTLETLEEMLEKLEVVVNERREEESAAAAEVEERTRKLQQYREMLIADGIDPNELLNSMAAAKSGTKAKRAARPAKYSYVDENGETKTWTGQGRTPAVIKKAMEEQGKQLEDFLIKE

[3] = target: T1, H-NS (Salmonella enterica serovar Typhimurium ATCC 14028); experiment: SPR; details: range over six promoters; SPR: streptavidin chip with biotinylated dsDNA, +/-20 uM cAMP for CRP, active protein concentration by CFCA; SPR buffer, pH and temperature not given; recombinant protein; residues 1-137; label: biotin; probe letters rebuilt from the primers and the genome

## CTTCAGCCTAAAACGCATACCGTATTCAATGTAAATTTTAGGATTAAAAATTTCAAATTTATTTTTATGAAATTTTATTTTGAAAGTTTGACGGCTGATTTTTATACGATGGTATGTGCAGCAAGAAATCAAAAATATAATTAACTTATTGATTTTTATCGTTTTTATTTGGTGTGTCATCAATGGTTGTCTGTTGTGACGAGGAAAGATTTGGAAAAAATTATGATCTATATAGCATTTTTGTTTCATTTGGTGTGGTATAAAAATTCAAATTTCAGGGGGGTTTCGGCACCACAGTTTCGGATATTGGAGGGTAAATCATGCGCTTGTGCTTCTGTCCTTCAGAACGAGAGAATAAGGCTCA (double strand) [PreiD EMSA]
[1]
  binding result: binds
[2]
  binding result: binds

## CTTATGTCGGTCATTGCCGTAGCGCTGCCGACGATCTTATAGCTATTGAGAACTCTCGTTTCACAACCTATGTTTTAATTTCAAAACGATCAATAATGAAACTTATGTTTTGTTATGGGTATCACATTTCGAATTTCATAATCCTGGCGTTTTTTATCGTT (double strand) [PiolT1 SPR]
[3]
  binding result: binds

## CCATTGATGACACACCAAATAAAAACGATAAAAATCAATAAGTTAATTATATTTTTGATTTCTTGCTGCACATACCATCGTATAAAAATCAGCCGTCAAACTTTCAAAATAAAATTTCATAAAAATAAATTTGAAATTTTTAATCCTAAAATTTACATTGAATACGGTATGCGTTTTAGGCTGAAGATAACCAGGCTTTCCTGTGACCGCTCAGTCAGAACGTCGTCAACATCGGTTTAAGAGGATAAAAAAGAGATGGAAACAGTCGGCAATTTTATTCATGGTAAAACGACACTGAGCAGCAGCGGCGAGACGCTACCGGTGACTAATCCGG (double strand) [PiolA EMSA]
[1]
  binding result: binds
[2]
  binding result: binds

## CGGATCCGTTTAGACATGCATGATACTCTAATAGAACGAAAATTTCGTAAATAACCATATTAGCACAAATGAACTGAACATACAGTTAACAACATTCAAATTGCGCTGTGGTTACCTTCAGTACAGAATTTGCTGGCGGGCTGGGTTCTGAGCAATCTGAATCTGACCGCATAAATGCGACAGGATCAGCATTGTTATGACTGGACGATGCCCGCAGCCAGGCGGCATCGCAAACGTTGAAAGGCAGAAGATGACGTTTATAAATCACGAAACCTTCATCTGTTATTGCGAACTGGCTCTTTTCGTGAATTCC (double strand) [PiolR (CRP) EMSA]
[1]
  binding result: binds

## GTTGGCTTTAGCAACCTTAGTCATTTTCAGAATTACTTCAAAAATAAAGTAGGGAAAACGCCCGGTCAATATCGCAAGGACTATCGTAAAGCTAATTATTTATTATTTGAATATTAATGCTTGCTAAAATTTAATCGTCATGAGAATGGTCGCAATACTGCGGCCATTTTTTATTTGTCGGTATATTTTATGCGTTTATCTATAGCGCGAAAAGTCTGGCAATATCATTAAAGAGTGATGATTTTTTTGTGATACCTGACGCATTTATCCCACTTCTTCAACCAGGATAGATAAAGTTTTTCAGGCTACAAAAAGTAATATGTTGTCCATCAAAGGTTAATTTGCATCGCGGTATGCAGTAAAAGCGTTTCATTAAGTGGGAGCC (double strand) [PiolE EMSA]
[1]
  binding result: binds

## GGAATTCTCTCGTTTCACAACCTATGTTTTAATTTCAAAACGATCAATAATGAAACTTATGTTTTGTTATGGGTATCACATTTCGAATTTCATAATCCTGGCGTTTTTTATCGTTAAGATGCTGCGTTTTACGCAGTGCTCTCCTCTATCTTGATGAAGTTACTTGATTTTATTGATTTCGCGACAGTACCTGAACTCAATTTGTCAGGGGCCGTACTTTTTGTTCTTTCCTGGAACATCTCCATTTCGTGATCTTTTGCATGGAATTTTTCTTCTAATGAATGCAAAAATAAAATGAAAAATTTCATTGGTGTGTTGTTTCCTCAACAGGCAAGGGAGGGATTATGTCTCAGAGGATCCG (double strand) [PiolT2 EMSA]
[1]
  binding result: binds
[2]
  binding result: binds
